Pooled drug test results. Numbers come from NIAID ChemDB, via PubChem.

ICn is the concentration giving n% inhibition. ECn is the concentration giving n% inhibition of infection, replication or growth. Percent inhibition refers to the dose given; in toxicity tests it is the harm to the cells. Blank or dashed fields: not listed here. Conditions beyond the fields shown may differ between rows. MIC50, MIC90 and the like: level of inhibition, or share of isolates inhibited. MIC bound comes from a single tested concentration.

structure | test | organism | strain | cell line | target | read by | measure | dose | value
COC(=O)[C@@H]1[C@H](O)[C@H](C)C(O)[C@H](C)/C=C\C=C(/C)C(=O)Nc2c(C)c(OC(C)=O)c3c(c2O)C(=O)C(C)=C2OCOC(=C23)/C(C)=C/[C@@](C)(O)[C@H](O)[C@@H](C)[C@H]1OC(C)=O | culture | Mycobacterium tuberculosis | CS-R | - | - | - | MIC | - | 0.4 µg/mL
CSc1ccccc1-c1cncc(N2CCN(c3ccccn3)CC2)n1 | target | Cytomegalovirus | - | - | UL97 kinase | - | inhibition | 10 µM | >15%
N=C(N)SC(c1ccccc1)c1ccccc1 | culture | Mycobacterium tuberculosis | H37Rv | - | - | - | MIC | - | >100 µg/mL
CC(=O)c1ccc(-c2cncc(N3CCN(c4ccc(F)cc4F)CC3)n2)cc1 | target | Cytomegalovirus | - | - | UL97 kinase | - | inhibition | 1 µM | <50%
COc1ccc(CNc2nnc(NC(=O)c3ccc(C#N)cc3)s2)cc1OC | target | Human cytomegalovirus | - | - | Polymerase | - | IC50 | - | >25 µM
CCC(=O)c1ccc(NC(C)=O)cc1 | culture | Mycobacterium tuberculosis | H37Rv | - | - | - | MIC | - | >100 µg/mL
Nc1c(S(=O)(=O)[O-])cc2cc(S(=O)(=O)[O-])ccc2c1O | culture | Herpes simplex virus | - | Human conjunctiva cells | - | cytopathic effect | inhibition | 5 µg/mL | 0%
COc1ccc(C(=O)Cc2nc3nnc(N)n3[nH]c2=O)cc1 | culture | Mycobacterium tuberculosis | H37Rv | - | - | BACTEC | MIC bound | - | >12.5 µg/mL
C#CC[C@@H](C(=O)N[C@H](/C=C/C(=O)OCC)C[C@@H]1CCNC1=O)n1cccc(NC(=O)c2cc(C)on2)c1=O | culture | Rhinovirus | Serotype 87 | H1-HELA | - | cytopathic effect / XTT | EC50 | - | 0.045 µM
Nc1ccc2c(c1)S(=O)(=O)c1cc(N)ccc1-2 | culture | Mycobacterium tuberculosis | H37Rv | - | - | - | MIC | - | 50 µg/mL
CC(=O)c1ccccc1-c1cncc(N2CCN(c3ccc(F)cc3F)CC2)n1 | target | Cytomegalovirus | - | - | UL97 kinase | - | inhibition | 1 µM | <50%
CC1CCCC(NCCNC(c2ccccc2)c2ccccc2)C1C | culture | Mycobacterium tuberculosis | - | - | - | - | MIC | - | 50 µM
O=C(Nc1nnc(NCc2cccc3ccccc23)s1)c1ccc2c(c1)C(=O)OC2=O | target | Human cytomegalovirus | - | - | Polymerase | - | IC50 | - | <25 µM
Fc1ccc(N2CCCCC2)c(NC(=S)c2ccncc2)c1 | host protein | - | - | - | Rsk3 | kinase activity | inhibition | 10 µM | 39%
C=CCc1ccc(O)c(OC)c1 | culture | Candida tropicalis | 2960 | - | - | turbidity | MIC90 | - | 480 µg/mL
Fc1ccc(-c2cncc(N3CCN(c4ccccn4)CC3)n2)cc1 | target | Cytomegalovirus | - | - | UL97 kinase | - | IC50 | - | <10 µM
O=C(Nc1nnc(NC2CCCCCC2)s1)c1cccc([N+](=O)[O-])c1 | target | Human cytomegalovirus | - | - | Polymerase | - | IC50 | - | >25 µM
CN(C)c1ccc(/C=C/C=N/NC(N)=O)cc1 | culture | Mycobacterium tuberculosis | H37Rv | - | - | - | MIC | - | 50 µg/mL
Nc1ncc(-c2ccc3ccccc3c2)nc1N1CCN(c2ccncc2)CC1 | target | Cytomegalovirus | - | - | UL97 kinase | - | IC50 | - | <1 µM
CCN(CC)CC[n+]1ccc2c(C)c3[nH]c4ccccc4c3c(C)c2c1 | culture | Mycobacterium tuberculosis | H37Rv | - | - | resazurin | MIC bound | - | <6.25 µg/mL
CCCCCCCC/C=C/CCCCCCCC(=O)Nc1nnc(NCc2ccc3c(c2)OCO3)s1 | target | Human cytomegalovirus | - | - | Polymerase | - | IC50 | - | <25 µM
Cl.Nc1ccc2c(c1)S(=O)(=O)c1ccccc1O2 | culture | Mycobacterium tuberculosis | H37Rv | - | - | - | MIC | - | 100 µg/mL
CC(=O)N[C@H]1[C@H]([C@H](O)[C@H](O)CO)OC(C(=O)O)=C[C@@H]1N=C(N)N | culture | Influenza A virus | H1N1 A/NWS/33 | MDCK | - | - | EC50 | - | >100 µM
c1cc2c3c(cccc3c1)N1C(=N2)Sc2nc3ccccc3nc21 | culture | Mycobacterium tuberculosis | H37Rv | - | - | - | inhibition | 6.25 µg/mL | 4%
CCCCCc1ccc(Oc2ccc([N+](=O)[O-])cc2C(=O)Nc2cccc(NC(C)=O)c2)c(CCCCC)c1 | culture | Mycobacterium tuberculosis | H37Rv | - | - | - | MIC | - | 100 µg/mL
CN1OC(=O)OC2(CCCCC2)C1=O | culture | Mycobacterium tuberculosis | H37Rv | - | - | resazurin | inhibition | 6.25 µg/mL | -3%
COc1ccc(N2CCN(c3cncc(-c4ccc(C(F)(F)F)cc4)n3)CC2)cc1 | target | Cytomegalovirus | - | - | UL97 kinase | - | inhibition | 1 µM | <50%
O=C(O)c1cc(S(=O)(=O)[O-])ccc1O | culture | Adenovirus | TYPE 3 | Human amnion AV3 cells | - | cytopathic effect | inhibition | 10 µg/mL | 10%
Cc1cc(C)c(C(=O)/C(N=O)=C(\O)c2ccccc2)c(C)c1 | culture | Mycobacterium tuberculosis | H37Rv | - | - | - | MIC | - | 50 µg/mL
Cn1cc(NC(=O)Nc2cc(C(=O)Nc3cc(C(=O)Nc4ccc5cc(S(=O)(=O)O)cc(S(=O)(=O)O)c5c4)n(C)n3)n(C)c2)cc1C(=O)Nc1cc(C(=O)Nc2ccc3cc(S(=O)(=O)O)cc(S(=O)(=O)O)c3c2)n(C)n1 | culture | Mycobacterium tuberculosis | H37Rv | - | - | BACTEC | MIC bound | - | >12.5 µg/mL
CCCCCCCC/C=C/CCCCCCCC(=O)Nc1nnc(NC2CCCc3ccccc32)s1 | target | Human cytomegalovirus | - | - | Polymerase | - | IC50 | - | <25 µM
S=C(S)Nc1cccc(Cl)c1 | culture | Mycobacterium tuberculosis | H37Rv | - | - | BACTEC | MIC | - | ≥12.5 µg/mL
Cc1ccc(C(=O)Nc2ccc(S(=O)(=O)O)c3cc(S(=O)(=O)O)cc(S(=O)(=O)O)c23)cc1NC(=O)c1cccc(NC(=O)Nc2cccc(C(=O)Nc3cc(C(=O)Nc4ccc(S(=O)(=O)O)c5cc(S(=O)(=O)O)cc(S(=O)(=O)O)c45)ccc3C)c2)c1 | culture | Herpes simplex virus | - | Human amnion AV3 cells | - | cytopathic effect | inhibition | 50 µg/mL | 100%
O=C1C=C(Nc2ccccc2C(=O)CC(=O)C(=O)Nc2cccc([N+](=O)[O-])c2)c2ccccc2C1=O | culture | Mycobacterium tuberculosis | H37Rv | VERO | - | resazurin | MIC | - | ≤0.1 µg/mL
NNc1ccc([As]=O)cc1 | culture | Mycobacterium tuberculosis | H37Rv | - | - | - | MIC | - | 100 µg/mL
Nc1c(C(=O)Nc2ccc(S(N)(=O)=O)cc2)[n+]([O-])c2ccccc2[n+]1[O-] | culture | Mycobacterium tuberculosis | H37Rv | - | - | BACTEC | MIC | - | ≥12.5 µg/mL
O=C(O)CC(CC(=O)O)C(=O)O | culture | Mycobacterium tuberculosis | H37Rv | - | - | - | MIC | - | >100 µg/mL
c1ccc(CC2CCN(CCNCC34CC5CC(CC(C5)C3)C4)CC2)cc1 | culture | Mycobacterium tuberculosis | - | - | - | - | MIC | - | 9.4 µM
COc1ccc(C)cc1N=NC1C(=O)N(C(=O)CC(=O)Nc2ccccc2OC)N=C1c1ccccc1 | culture | Mycobacterium tuberculosis | H37Rv | - | - | BACTEC | inhibition | 12.8 µg/mL | 5%
c1ccc(CCCNCCNCC23CC4CC(CC(C4)C2)C3)cc1 | culture | Mycobacterium tuberculosis | - | - | - | - | MIC | - | 25 µM
CCCCCCN(CCCCCC)/N=C/c1c2c(O)c3c(O)c(C)c4c(c3c1O)C(=O)[C@@](C)(O/C=C/[C@H](OC)[C@@H](C)[C@@H](OC(C)=O)[C@H](C)[C@H](O)[C@H](C)[C@@H](O)[C@@H](C)/C=C/C=C(/C)C(=O)N2)O4 | culture | Mycobacterium tuberculosis | H37Rv | VERO | - | BACTEC | MIC | - | 1.6 µg/mL
O=C(Nc1cc(S(=O)(=O)O)cc2cc(S(=O)(=O)O)cc(O)c12)c1ccccc1 | culture | Rhinovirus | - | Human amnion AV3 cells | - | cytopathic effect | inhibition | 5 µg/mL | 0%
COc1ccc(O)c(N=Nc2ccccc2C(=O)O)c1 | culture | Mycobacterium tuberculosis | H37Rv | - | - | - | MIC | - | 50 µg/mL
O=[N+]([O-])c1ccc(Cl)c(C(Nc2nncs2)Nc2nncs2)c1 | culture | Mycobacterium tuberculosis | H37Rv | - | - | BACTEC | inhibition | 12.5 µg/mL | 0%
CCOc1ccccc1CNCCNCCCCc1ccccc1 | culture | Mycobacterium tuberculosis | - | - | - | - | MIC | - | 50 µM
CCCNC(C)C(=O)c1ccccc1 | culture | Mycobacterium tuberculosis | H37Rv | - | - | - | MIC | - | >100 µg/mL
CCCCCCCCCCCNCCNCc1ccc(OC)c(OC)c1 | culture | Mycobacterium tuberculosis | - | - | - | - | MIC | - | 50 µM
CC(C)c1cc(C(C)C)c(C(=O)Nc2nnc(NCCCCc3ccccc3)s2)c(C(C)C)c1 | target | Human cytomegalovirus | - | - | Polymerase | - | IC50 | - | >25 µM
CC12OC1C(=O)c1ccccc1C2=O | culture | Mycobacterium tuberculosis | H37Rv | - | - | - | MIC | - | 50 µg/mL
CC(=O)c1c(O)c(C)c(O)c(Cc2c(O)c3c(c(C(=O)/C=C/c4ccccc4)c2O)OC(C)(C)C=C3)c1O | culture | Mycobacterium tuberculosis | H37Rv | - | - | BACTEC | MIC bound | - | >12.5 µg/mL
CCCCCCCCCCCNCCNCCCCO | culture | Mycobacterium tuberculosis | - | - | - | - | MIC | - | 50 µM
O=C(c1ccco1)N1CCN(c2cncc(-c3cccc(CO)c3)n2)CC1 | target | Cytomegalovirus | - | - | UL97 kinase | - | IC50 | - | <100 µM
Oc1ccccc1 | culture | Mycobacterium tuberculosis | H37Rv | - | - | - | MIC | - | >100 µg/mL
NCCS(=O)(=O)O | culture | Adenovirus | TYPE 3 | Human embryonic lung cells | - | cytopathic effect | inhibition | 5 µg/mL | 10%
CC(=O)c1ccc(-c2cncc(N3CCN(c4cccc(C)c4C)CC3)n2)cc1 | target | Cytomegalovirus | - | - | UL97 kinase | - | inhibition | 10 µM | >15%
O=C1C=Cc2ccccc2C1=O | culture | Mycobacterium tuberculosis | H37Rv | - | - | - | MIC | - | 50 µg/mL
C[C@@H]1O[C@@H]1P(=O)(O)O | culture | Mycobacterium tuberculosis | H37Rv | - | - | BACTEC | inhibition | 12.5 µg/mL | -5%
COc1ccc(NC=O)c([N+](=O)[O-])c1 | culture | Mycobacterium tuberculosis | H37Rv | - | - | - | MIC | - | 50 µg/mL
COc1cc(C[C@H](C)[C@H](C)Cc2ccc(O)c(O)c2)ccc1O | culture | Candida lusitaniae | CCC 131-2000 | - | - | broth dilution | MIC100 | - | 125 µg/mL
CCOc1ccc(NC2=CC(=O)C(=O)c3ccccc32)cc1 | culture | Mycobacterium tuberculosis | H37Rv | - | - | resazurin | MIC | - | ≤0.1 µg/mL
COc1ccc2[nH]c(-c3ccccc3)cc(=O)c2c1 | culture | Mycobacterium tuberculosis | H37Rv | - | - | - | MIC | - | 50 µg/mL
O=C(Nc1nnc(NCCCNC2CCCCC2)s1)c1ccc(I)cc1 | target | Human cytomegalovirus | - | - | Polymerase | - | IC50 | - | >25 µM
CN1[C@@H]2CC[C@H]1CC(OC(=O)[C@H](CO)c1ccccc1)C2 | culture | Mycobacterium tuberculosis | H37Rv | - | - | BACTEC | MIC bound | - | >12.8 µg/mL
Nc1ccc(S(=O)(=O)c2ccc(Cl)cc2)c(N)c1 | culture | Mycobacterium tuberculosis | H37Rv | - | - | - | MIC | - | 50 µg/mL
CCO/N=C/c1ccc(OCCC2CCN(c3ccc(C)nn3)CC2)cc1 | culture | Rhinovirus | CH79 (ICAM-1 receptor group 38) | KB | - | neutral red | EC50 | - | 0.024 µM
COc1ccc2c(Cl)c3cc(Cl)ccc3nc2c1 | culture | Mycobacterium tuberculosis | H37Rv | - | - | - | MIC | - | >100 µg/mL
CC(=O)Oc1c2c(c(CC=C(C)C)c3c1C(=O)C1=CC4CC5C(C)(C)OC(C/C=C(\C)C(=O)O)(C4=O)C15O3)OC(C)(CCC=C(C)C)C=C2 | culture | Mycobacterium tuberculosis | H37Rv | - | - | BACTEC | MIC bound | - | >12.5 µg/mL
O=C(CC(=O)c1ccccc1)Nc1ccc(NS(=O)(=O)c2ccccc2)cc1 | culture | Mycobacterium tuberculosis | H37Rv | - | - | - | MIC | - | >100 µg/mL
Fc1ccc(-c2cncc(N3CCN(c4ccc(Cl)c(Cl)c4)CC3)n2)cc1 | target | Cytomegalovirus | - | - | UL97 kinase | - | IC50 | - | <100 µM
CC(=O)O[C@H]1C(=O)[C@]2(C)[C@@H](OC(C)=O)C[C@H]3OC[C@@]3(OC(C)=O)[C@H]2[C@H](OC(=O)c2ccccc2)[C@]2(O)C[C@H](OC(=O)[C@H](OC(C)=O)[C@@H](NC(=O)c3ccccc3)c3ccccc3)C(C)=C1C2(C)C | culture | Mycobacterium tuberculosis | H37Rv | - | - | - | MIC | - | 6.3 µg/mL
O=S(=O)([O-])c1cc(S(=O)(=O)[O-])c2cc(NS(=O)(=O)c3ccccc3)ccc2c1 | culture | Adenovirus | TYPE 3 | Human amnion AV3 cells | - | cytopathic effect | inhibition | 5 µg/mL | 0%
CCCCC(CC)CN1CN(CC(CC)CCCC)CC(C)(NCCNC2CCCC(C)C2C)C1 | culture | Mycobacterium tuberculosis | - | - | - | - | MIC | - | 50 µM
C1CC[N+]2(CC1)CCCCC2.NC(=S)[S-] | culture | Mycobacterium tuberculosis | PZA-R | - | - | - | MIC | - | 1.6 µg/mL
FC(F)(F)Oc1ccc(CNCCNC2C3CC4CC(C3)CC2C4)cc1 | culture | Mycobacterium tuberculosis | - | - | - | - | MIC | - | 12.5 µM
CCC1CN2CCc3cc(OC)c(OC)cc3C2C(C2(O)C(=O)Nc3ccccc32)C1=O | culture | Mycobacterium tuberculosis | H37Rv | - | - | BACTEC | MIC bound | - | >12.5 µg/mL
O=C(Nc1ccc(Nc2ccccc2)c(S(=O)(=O)[O-])c1)c1ccccc1.[Na+] | culture | Mycobacterium tuberculosis | H37Rv | - | - | - | MIC | - | >100 µg/mL